Bridge positions count the residues as written; N and C are the ends. I, II: the chains in the order shown.
tested on: MT-2 cells; type: cell-based; conditions: CC50 in MT-2 cells / EC50 HIV-1IIIB
Procedure: The cytotoxic effect of the compounds on MT-2 cells was determined using the XTT assay as described previously.

For “I: Ac-EQEAIKKKIEAIEKAIEAQQHLLQLTVWGIKQLQARIL-NH2 / II: Ac-EQEAIKKKIEAIEKAIEAQQHLLQLTVWGIKQLQARIL-NH2 / III: Ac-EQEAIKKKIEAIEKAIEAQQHLLQLTVWGIKQLQARIL-NH2 (amide I:8-III:13, I:13-II:8, II:13-III:8) [(IZ14N24N)3]”, the “SI (selectivity index) = CC50/EC50 for inhibiting HIV-1IIIB infection” value was >50000.

Going from “I: Ac-EQEAIKKKIEAIEKLLQLTVWGIKQLQARIL-NH2 / II: Ac-EQEAIKKKIEAIEKLLQLTVWGIKQLQARIL-NH2 / III: Ac-EQEAIKKKIEAIEKLLQLTVWGIKQLQARIL-NH2 (amide I:8-III:13, I:13-II:8, II:13-III:8) [(IZ14N17)3]” to “I: Ac-EQEAIKKKIEAIEKLLQLTVWGIKQLQARILAVERYLK-NH2 / II: Ac-EQEAIKKKIEAIEKLLQLTVWGIKQLQARILAVERYLK-NH2 / III: Ac-EQEAIKKKIEAIEKLLQLTVWGIKQLQARILAVERYLK-NH2 (amide I:8-III:13, I:13-II:8, II:13-III:8) [(IZ14N24C)3]”, the “SI (selectivity index) = CC50/EC50 for inhibiting HIV-1IIIB infection” value falls from 3842 to 1925.

Compared with “I: Ac-IKKEQEAIKKKIEAIEKLLQLTVWGIKQLQARIL-NH2 / II: Ac-IKKEQEAIKKKIEAIEKLLQLTVWGIKQLQARIL-NH2 / III: Ac-IKKEQEAIKKKIEAIEKLLQLTVWGIKQLQARIL-NH2 (amide I:11-II:16, I:16-III:11, II:11-III:16) [(IZ17N17)3]”, “I: Ac-IKKKIEAIEKAIEAQQHLLQLTVWGIKQLQARIL-NH2 / II: Ac-IKKKIEAIEKAIEAQQHLLQLTVWGIKQLQARIL-NH2 / III: Ac-IKKKIEAIEKAIEAQQHLLQLTVWGIKQLQARIL-NH2 (amide I:4-II:9, I:9-III:4, II:4-III:9) [(IZ10N24N)3]” is higher in “SI (selectivity index) = CC50/EC50 for inhibiting HIV-1IIIB infection” value: 976 for the first, 3833 for the second.

Going from “I: Ac-IKKKIEAIEKLLQLTVWGIKQLQARIL-NH2 / II: Ac-IKKKIEAIEKLLQLTVWGIKQLQARIL-NH2 / III: Ac-IKKKIEAIEKLLQLTVWGIKQLQARIL-NH2 (amide I:4-II:9, I:9-III:4, II:4-III:9) [(IZ10N17)3]” to “I: Ac-IKKKIEAIEKLLQLTVWGIKQLQARILAVERYLK-NH2 / II: Ac-IKKKIEAIEKLLQLTVWGIKQLQARILAVERYLK-NH2 / III: Ac-IKKKIEAIEKLLQLTVWGIKQLQARILAVERYLK-NH2 (amide I:4-II:9, I:9-III:4, II:4-III:9) [(IZ10N24C)3]”, the “SI (selectivity index) = CC50/EC50 for inhibiting HIV-1IIIB infection” value rises from 34 to 454.

From paper PMC4999862, “Site-specific Isopeptide Bridge Tethering of Chimeric gp41 N-terminal Heptad Repeat Helical Trimers for the Treatment of HIV-1 Infection” (Scientific Reports, 2016)
